Substitutions are numbered along the chain they refer to. Where two headings read alike, the source gives them in different places.
How the values were obtained:
[1] = molecular target: SARS-CoV-2 WT Spike protein on renilla luciferase reporter viral particles (SARS-CoV-2, UniProt P0DTC2 14-1273); experiment: cell-based or functional assay
[2] = molecular target: Spike protein of authentic SARS-CoV-2/MT020880.1 (live virus) (SARS-CoV-2, UniProt P0DTC2 14-1273); experiment: cell-based or functional assay
[3] = molecular target: SARS-CoV-2 Spike (S) protein, wild type, full length (SARS-CoV-2, UniProt P0DTC2 14-1273); experiment: flow cytometry, CHO cells expressing full-length Spike
SARS-CoV Spike protein [4] = molecular target: T1, SARS-CoV Spike protein (SARS-CoV, UniProt P59594 14-1190); experiment: multiplexed bead assay, flow cytometry
SARS-CoV Spike protein [5] = molecular target: T1, SARS-CoV Spike protein; experiment: multiplexed bead assay, flow cytometry; remark: listed apart in the source
SARS-CoV Spike protein [6] = molecular target: SARS-CoV Spike protein (SARS-CoV, UniProt P59594 14-1190); experiment: multiplexed bead assay, flow cytometry, SARS-CoV Spike on beads
SARS-CoV-2 Spike NTD = SARS-CoV-2 Spike NTD (SARS-CoV-2, UniProt P0DTC2 16-328); experiment: multiplexed bead assay, flow cytometry, […]

B1: anti-SARS-CoV-2 antibody 923 (antibody, V domains shown)
VH: EVQLVESGGGVVRPGGSLRLSCAASGFIFDDYDMTWVRQAPGKGLEWVSGISWNGGNTGYADSVKGRFTISRDNAKNSLYLQMNSLRAEDTALYHCAVIMSPIPRYSGYDWAGGAFDIWGQGTMVTVSS
VL: SSELTQDPAVSVALGQTVRITCQGDSLRSYYASWYQQKPGQVPILVIYDKNNRPSGIPDRFSGSSSGNTASLTITGAQAEDEADYYCNSRDSSGNAVVFGGGTKLTVLG
- IC50 WT (µg/mL); pseudovirus neutralization, luciferase [1]: 0.155 µg/mL

B2: anti-SARS-CoV-2 antibody 1037 (antibody, V domains shown)
VH: QITLKESGPTLVKPTQTLTLTCTFSGFSLSTSGVGVGWIRQPPGKALEWLALIYWDDDKRYSPSLKSRLTITKDTSKNQVVLTMTNMDPVDTATYYCAHHTITRINDYWGQGTLVTVSS
VL: QSALTQPASVSGSPGQSITISCTATSSDVGAYNYVSWYQQHPGKAPKLMIYDVSKRPSGVSNRFSGSKSGNTASLTISGLQAEDEADYYCSSYTSSSTVFGGGTKLTVLG
- IC50 WT (µg/mL); pseudovirus neutralization, luciferase [1]: 0.0212 µg/mL

B3: anti-SARS-CoV-2 antibody 1444 (antibody, V domains shown)
VH: QVQLVQSGAEVKKPGASVKVSCKASGYTFTAYYMHWVRQAPGQGLEWMGWINPNSDDTNYAQKFQGRVTMTRDTSISTAYMELSRLRSDDTAVYYCAREEGVFTIGDRYFDLWGRGTLVSVSS
VL: QTVVTQEPSFSVSPGGTVTLTCGLSSGSVSTSYYPSWYQQTPGQAPRTLIYNTNTRSSGVPDRFSGSILGNKAALTITGAQADDESDYYCVLYMGSGIWVFGGGTKLTVLG
- IC50 WT (µg/mL); pseudovirus neutralization, luciferase [1]: 0.115 µg/mL

B4: anti-SARS-CoV-2 antibody 851 (antibody, V domains shown)
VH: QITLKESGPTLVKPTQTLTLTCTFSGFSLSTNGVGMGWIRQPPGKALEWLALIYWDDDQFYSPSLKSRLTITRDTSKNQVVLTMTNMDPVDTATYYCAQAFYESFGFYSWGQGTLVTVSS
VL: NFMLTQPHSVSESPGKTVIISCTRSIGSIASNYVQWYQQRPGSAPTIVVFEDNERPSGVPDRFSGSIDRSSNSASLTISGLKTEDEADYYCQSYDGSSELVFGGGTKLTVLG
- IC50 (ng/mL), immunofluorescence neutralization assay [2]: 208 ng/mL

B5: anti-SARS-CoV-2 antibody 1444 (antibody, V domains shown)
VH: B3 VH
VL: B3 VL
- IC50 (ng/mL), immunofluorescence neutralization assay [2]: 232 ng/mL

B6: antibody 545 (antibody, V domains shown)
VH: QVQLVQSGSELKKPGASVKVSCKASGYTFTSYAMNWVRQAPGQGLEWMGWINTNTGNPTYAQGFTGRFVFSLDTSVSTAYLQISVLKAEDTGVYYCARDHELPNSSSWFGHFEYWGQGTLVTVSS
VL: SYELTQPPSVSVSPGQTARITCSGDALPKQYAYWYQQKAGQAPVLVIYKDSERRSGIPERFSGSSSGTTVTLTISGVQAEDEADYYCQSADSSGTSVVFGGGTKLTVL
- median fluorescence, fold over isotype control [3]: 20.6 fold over isotype

B7: antibody 440 (antibody, V domains shown)
VH: EVQLLESGGGLVQPGGSLRLSCAASGFTFSSYAMSWVRQAPGKGLEWVSAISGSGVNTYHADSVKGRFTISRDNSRNTLYLQMSSLTAEDTAAYYCAKDFEAASGAYYYYGMDVWGQGTTVTVSS
VL: B6 VL with K29D, A39P, L45V, S51R, R54P, S65N, G94A, S96Y
- bead binding signal (fold over isotype control) (SARS-CoV Spike protein [4]): 1.37
- bead binding signal (fold over isotype control) (SARS-CoV Spike protein [5]): 1.01

B8: antibody 455 (antibody, V domains shown)
VH: QVQLVQSGAEVKKPGSSVKVSCKASGGTFSSYAISWVRQAPGQGLEWMGRIIPILGIANYAQKFQGRVTITADKSTSTAYMELSSLRSEDTAVYYCARDSIVVPAAIISGYYYYGMDVWGQGTTVTVSS
VL: QSVLTQPPSVSAAPGQKVTISCSGSSSNIGNNYVSWYQQLPGTAPKLLIYDNNKRPSGIPDRFSGSKSGTSATLGITGLQTGDEADYYCGTWDSSLSAGRVFGGGTKLTVL
- bead binding signal (fold over isotype control) (SARS-CoV Spike protein [4]): 61.4
- bead binding signal (fold over isotype control) (SARS-CoV Spike protein [5]): 10.2

B9: antibody 458 (antibody, V domains shown)
VH: QVQLVESGGGVVQPGRSLRLSCAASEFTFATYAMHWVRQAPGKGLEWVALISQDGSNKHYADSVKGRFTISRDNSKNTLYLQMNSLRAEGTAIYYCARESLEAAGPPFDYWGQGTLVTVSS
VL: SYELTQPPSVSVSPGQTATIICSGDKLGEKYASWYQQKPGQSPALVIYQDRKRPSGIPERFSGSNSGNTATLTISGTQAMDEADYYCQAWDSSNSVVFGGGTKLTVP
- bead binding signal (fold over isotype control) (SARS-CoV Spike protein [4]): 1.03
- bead binding signal (fold over isotype control) (SARS-CoV Spike protein [5]): 1.01

B10: antibody 469 (antibody, V domains shown)
VH: QVQLVESGGGVVQPGRSLRLSCAASGFTFSSYGMHWVRQAPGKGLEWVAVIWYDGSNKYYADSVKGRFTISRDNSKNTLYLQMNSLRAEDTAVYYCARDLLSVGWSFDYWGQGTLVTVSS
VL: not shown
- bead binding signal (fold over isotype control) (SARS-CoV Spike protein [4]): 1.43
- bead binding signal (fold over isotype control) (SARS-CoV Spike protein [5]): 1

B11: anti-coronavirus antibody 562 (antibody, V domains shown)
VH: QVQLVESGGGVVQPGRSLRLSCAASGFTFSSYAMHWVRQAPGKGLEWVAVISYDGSNKYYADSVKGRFTISRDNSKNTLYLQMNSLRAEDTAVYYCARASSGGYQGPFDPWGQGTLVTVSS
VL: QSALTQPASVSGSPGQSITISCTGTSSDVGGYNYVSWYQQHPGKAPKLMIYDVSNRPSGVSNRFSGSKSGNTASLTISGLQAEDEADYYCSSYTSSSTLLYVFGTGTKVTVLG
- binding signal (fold over isotype control) (SARS-CoV Spike protein [6]): 5.67 fold over isotype control

B12: antibody 851 (antibody)
heavy: not shown
light: NFMLTQPHSVSESPGKTVIISCTRSIGSIASNYVQWYQQRPGSAPTIVVFEDNERPSGVPDRFSGSIDRSSNSASLTISGLKTEDEADYYCQSYDGSSELVFGGGTKLTVLGQPKAAPSVTLFPPSSEELQANKATLVCLISDFYPGAVTVAWKADSSPVKAGVETTTPSKQSNNKYAASSYLSLTPEQWKSHRSYSCQVTHEGSTVEKTVAPTECS
- bead assay binding signal (SARS-CoV-2 Spike NTD): 174

B13: antibody 1037 (antibody, V domains shown)
VH: B2 VH
VL: B2 VL
- bead assay binding signal (SARS-CoV-2 Spike NTD): 1.2

B14: antibody 1404 (antibody, V domains shown)
VH: B2 VH with T31I, I39L, T72S, T83K, M87I, T101S, T103S, R104T, N106F, Y108H
VL: B2 VL with A31D, Y51F, D52E, K55D, V60I, S95T, T98A
- bead assay binding signal (SARS-CoV-2 Spike NTD): 1.1

B15: antibody 1444 (antibody, V domains shown)
VH: B3 VH
VL: B3 VL
- bead assay binding signal (SARS-CoV-2 Spike NTD): 1.1

Source: patent US20220356229A1 (published 2022)
